Data as given in PubChem BioAssay AID1259414 (Drosophila RNAi Screening Center, 2018)
Aim: 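Host factors increasing or decreasing Wolbachia levels in cultured fly cells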 (primary screen). Cells: Drosophila JW18 cells infected with Wolbachia. Reagent: long dsRNA against Drosophila genes, 0.25 µg dsRNA per well of a 384-well plate. Time to read-out: 5 days. Conditions: cells persistently infected with Wolbachia before knock-down; no added drug. Measurement: 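Automated imaging of bacterial rRNA staining divided by host cell count, reported as plate-normalised robust z-score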. Scale: Wolbachia per cell robust z: higher = more Wolbachia per host cell than the plate typical. Call rule: 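Active if absolute robust z reaches 1.5 in two or more of three replicates, leaving out multi- or no-target dsRNAs, genes unexpressed in JW18 and A1 wells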.
In all, the deposit lists about 24,000 reagents; this is an unselected part of those with a known target gene and a result. In the full data, about 1,210 (5%) are marked active. 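Inactive calls also include excluded dsRNAs with several or no targets, genes unexpressed in JW18, and well A1, regardless of score.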 Unmarked entries are inactive.

feo (GeneID 32015) [DRSC19398]: Wolbachia per cell robust z, rep 1 = 0.946; Wolbachia per cell robust z, rep 2 = 0.739; Wolbachia per cell robust z, rep 3 = 0.832
feo (GeneID 32015) [DRSC23773]: Wolbachia per cell robust z, rep 1 = 0.565 (active); Wolbachia per cell robust z, rep 2 = 1.53; Wolbachia per cell robust z, rep 3 = 2.6
CG7785 (GeneID 42158) [DRSC16311]: Wolbachia per cell robust z, rep 1 = -0.000772; Wolbachia per cell robust z, rep 2 = -4.71; Wolbachia per cell robust z, rep 3 = -0.937
pkaap (GeneID 34957) [DRSC01925]: Wolbachia per cell robust z, rep 1 = -1.78 (active); Wolbachia per cell robust z, rep 2 = -1.33; Wolbachia per cell robust z, rep 3 = -1.54
CG14840 (GeneID 41734) [DRSC14964]: Wolbachia per cell robust z, rep 1 = 0.909; Wolbachia per cell robust z, rep 2 = 0.452; Wolbachia per cell robust z, rep 3 = 0.892
CG14840 (GeneID 41734) [DRSC27978]: Wolbachia per cell robust z, rep 1 = 0.386; Wolbachia per cell robust z, rep 2 = -0.0682; Wolbachia per cell robust z, rep 3 = -0.00514
CG13856 (GeneID 42628) [DRSC14706]: Wolbachia per cell robust z, rep 1 = 0.653; Wolbachia per cell robust z, rep 2 = 0.326; Wolbachia per cell robust z, rep 3 = 1.01
CG13133 (GeneID 34342) [DRSC02230]: Wolbachia per cell robust z, rep 1 = 0.161; Wolbachia per cell robust z, rep 2 = 0.814; Wolbachia per cell robust z, rep 3 = -0.475
stc (GeneID 34888) [DRSC03620]: Wolbachia per cell robust z, rep 1 = -0.397; Wolbachia per cell robust z, rep 2 = 0.087; Wolbachia per cell robust z, rep 3 = -0.778
stc (GeneID 34888) [DRSC40850]: Wolbachia per cell robust z, rep 1 = -1.58 (active); Wolbachia per cell robust z, rep 2 = -1.72; Wolbachia per cell robust z, rep 3 = -0.647
CG2260 (GeneID 31732) [DRSC18223]: Wolbachia per cell robust z, rep 1 = -0.346; Wolbachia per cell robust z, rep 2 = 1.4; Wolbachia per cell robust z, rep 3 = -1.04
CG2260 (GeneID 31732) [DRSC28536]: Wolbachia per cell robust z, rep 1 = 0.675; Wolbachia per cell robust z, rep 2 = 1.37; Wolbachia per cell robust z, rep 3 = 0.905

Looked up above.
Result of pkaap (GeneID 34957) [DRSC01925] in “Wolbachia per cell robust z, rep 3”: -1.54 (active)
Under “Wolbachia per cell robust z, rep 2”, CG13133 (GeneID 34342) [DRSC02230] shows 0.814
